Measured values from several laboratories, pooled; numbers as filed in NIAID ChemDB.

All rows: cytotoxicity tests; cells: MT-2; measure: CC50

Rows are shuffled and stem from different studies.

structure	read by	value
COc1cc([C@@H]2c3cc4c(cc3CC3COC(=O)C32)OCO4)cc(OC)c1OC		>0.01 µg/mL
Cc1cn([C@H]2C[C@H](N=[N+]=[N-])[C@@H](CO)O2)c(=O)[nH]c1=O		137 µg/mL
CCCCCCCCCCCCCCCCCCOC[C@H](CO)OC	MTT	335 µM
Nc1nc2c(ncn2[C@H]2C=C[C@@H](CO)C2)c(=O)[nH]1		41.8 µg/mL
COc1cc([C@@H]2c3c(ccc4ccccc34)C(=O)[C@H]3COC(=O)[C@@H]23)cc(OC)c1OC	propidium iodide	>50 µM
CN(C)c1nc(N)nc2c1ncn2[C@H]1CC[C@@H](CO)O1		>20 µM
COc1cc([C@@H]2c3cc4c(cc3C[C@H]3COC(=O)[C@@H]32)OCO4)cc(OC)c1OC		0.00065 µg/mL
CC[C@H](C)[C@H](NC(=O)C(=O)OC[C@H]1O[C@@H](n2cc(C)c(=O)[nH]c2=O)C[C@@H]1N=[N+]=[N-])C(=O)O	trypan blue	11 µM
Nc1nc(NC2CC2)c2ncn([C@H]3C=C[C@@H](CO)C3)c2n1		55 µM
COc1cc([C@@H]2c3cccc4cccc(c34)C3(SCCCS3)[C@@H]3COC(=O)[C@@H]23)cc(OC)c1OC	propidium iodide	>50 µM
O=C(c1ccccc1)N1CCC(CC2C(=O)N(c3ccccc3)c3ccccc32)CC1		35 µM
Cc1cn([C@H]2C[C@H](N=[N+]=[N-])[C@@H](COC(=O)C(=O)N[C@H](C(=O)O)C(C)C)O2)c(=O)[nH]c1=O	sulforhodamine	500 µM
CC(C)CN(C[C@@H](O)[C@H](Cc1ccccc1)NC(=O)[C@H](CC(N)=O)NC(=O)c1ccc2ccccc2n1)C(=O)NC(C)(C)C		>100 µg/mL
CCCCCCCCCCCCCCCCCCOC[C@@H](COP(=O)(O)C(=O)O)OCCCCCCCC	MTT	1102 µM
CCCCCCCCCCCCCCCCOCCCOP(=O)(O)CO[C@H](CO)Cn1cnc2c(N)nc(N)nc21	propidium iodide	68 µM
CCN1CC=C(CC2(CC3=CCN(CC)CC3)C(=O)N(c3ccccc3)c3ccccc32)CC1		>95 µM
Cc1cccc(C)c1OCC(=O)N[C@@H](Cc1ccccc1)[C@@H](O)C[C@H](Cc1ccccc1)NC(=O)[C@H](C(C)C)N1CCCNC1=O		26.8 µM
CN1CC=C(CC2(CC3=CCN(C)CC3)C(=O)N(c3ccccc3)c3ccccc32)CC1		>100 µM
Nc1ccn([C@H]2CC[C@@H](CO)O2)c(=O)n1		4 µM
CC(C)CN(C[C@@H](O)[C@H](Cc1ccccc1)NC(=O)O[C@H]1CCOC1)S(=O)(=O)c1ccc(N)cc1		>100 µM
CCNc1cccnc1N1CCN(C(=O)c2cc3cc(OC)ccc3[nH]2)CC1		28 µM
COC(=O)[C@H]1[C@H](c2cc(OC)c(OC)c(OC)c2)c2c(ccc3ccccc23)C(=O)[C@]12CCN=N2	propidium iodide	>50 µM
C[C@H](Cn1cnc2c(N)nc(N)nc21)OCP(=O)(O)O		350 µM
Nc1nc(=O)n([C@@H]2CS[C@H](CO)O2)cc1F		>1000 µM
NC(=O)C(c1ccccc1)(c1ccccc1)[C@H]1CCCN(CCOCc2ccccc2)C1	XTT	18 µM
COc1cc([C@@H]2c3cc4c(cc3[C@H](O)[C@H]3COC(=O)[C@H]23)OCO4)cc(OC)c1O		0.0066 µg/mL
Nc1nc2c(ncn2[C@H]2C=C[C@@H](CO)C2)c(=O)[nH]1		>100 µM
CN1CC=C(CC2(CC3=CCN(C)CC3)c3cccc4cccc(c34)C2O)CC1		90 µM
CNC(=O)C(c1ccccc1)(c1ccccc1)[C@H]1CCCN(CCc2ccc3c(c2)CCO3)C1	XTT	156 µM
Cc1cn([C@H]2C[C@H](N=[N+]=[N-])[C@@H](CO)O2)c(=O)[nH]c1=O		>22.5 µM
Cc1cn([C@H]2C[C@H](N=[N+]=[N-])[C@@H](COC(=O)C(=O)N[C@@H](CC(C)C)C(=O)O)O2)c(=O)[nH]c1=O	sulforhodamine	500 µM
CCCC[C@@H]1NC(=O)[C@@H](NC(C)=O)CCCCOc2ccc(cc2)C[C@@H]([C@H](O)CN(CCC(C)C)S(=O)(=O)c2ccc(N)cc2)NC1=O	trypan blue	7.371 µM
Nc1nc2c(ncn2[C@@H]2O[C@H](OCP(=O)(O)O)C=C2F)c(=O)[nH]1		700 µM
NC(=O)C(c1ccccc1)(c1ccccc1)[C@H]1CCCN(CCc2ccc(Cl)cc2)C1	XTT	19 µM
CCCCCCCCCCCCCCCCCCOCCCOP(=O)(O)C(=O)O	MTT	162 µM
Nc1ccn([C@H]2CC[C@@H](CO)O2)c(=O)n1		44 µg/mL
C[C@@H]1C[C@@H]([C@H](O)CC2CC(=O)NC(=O)C2)C(=O)[C@@H](C)C1		2.51 µM
CCCN(CCC)C(=O)OCOP(=O)(CO[C@H](C)Cn1cnc2c(N)ncnc21)OCOC(=O)N(CCC)CCC		10 µM
CN1CC=C(CC2(CC3=CCN(C)CC3)C(=O)N3c4ccccc4CCc4cccc2c43)CC1		74 µM
NC(=O)C(c1ccccc1)(c1ccccc1)C1CCCN(CCOCc2ccccc2)C1	XTT	51 µM
O=c1[nH]c(=O)n(C[C@@H](CO)OCP(=O)(O)O)cc1F	propidium iodide	>100 µM
COc1cc(C(O)[C@@H]2C(=O)OC[C@H]2C(=O)c2cccc3ccccc23)cc(OC)c1OC	propidium iodide	>50 µM
C[C@H](Cn1cnc2c(N)ncnc21)OCP(=O)(O)O		>1000 µM
Nc1nc(NC2CC2)c2ncn(CCOCP(=O)(O)O)c2n1	propidium iodide	4.2 µM
Nc1nc(Cl)c2ncn([C@H]3C=C[C@@H](CO)C3)c2n1		7 µg/mL
NC(=O)C(c1ccccc1)(c1ccccc1)C1CCCN(CCC2CCCCC2)C1	XTT	40 µM
Nc1ccn([C@H]2CC[C@@H](CO)O2)c(=O)n1		32 µg/mL
CCCCCCCCCCCCCCCCOCCCOP(=O)(O)COCCn1cc(F)c(N)nc1=O	propidium iodide	24 µM
CC(C)CN(C[C@@H](O)[C@H](Cc1ccccc1)NC(=O)O[C@H]1CO[C@H]2OCC(F)(F)[C@H]21)S(=O)(=O)c1ccc(N)cc1		37 µM
O=C(/C=C/c1ccc(O)c(O)c1)O[C@@H]1CC(O)(C(=O)O)C[C@@H](OC(=O)/C=C/c2ccc(O)c(O)c2)C1O		>150 µg/mL
Nc1nc2c(ncn2[C@H]2CC[C@@H](CO)O2)c(=O)[nH]1		>20 µM
CCCCCCCCCCCCCCCCCCOC[C@H](COP(=O)(O)C(=O)O)OC	MTT	267 µM
COc1ccc(S(=O)(=O)N(CC(C)C)C[C@@H](O)[C@H](Cc2ccccc2)NC(=O)O[C@H]2CO[C@H]3O[C@@H]4OCC[C@@H]4[C@H]32)cc1	MTT	44.6 µM
CCOC(=O)N1CCC(CC2C(=O)N(c3ccccc3)c3ccccc32)CC1		48 µM
CCCc1c([Se]c2ccccc2)n(COCc2ccccc2)c(=O)[nH]c1=O	MTT	>51.15 µM
CC(C)(C)C(=O)OCOP(=O)(COCCn1cnc2c(N)ncnc21)OCOC(=O)C(C)(C)C		2 µM
Nc1nc2c(ncn2[C@H]2C=C[C@@H](CO)O2)c(=O)[nH]1		16 µM
CCCCCCCCCCCCCCCCCCOC[C@@H](COP(=O)(O)C(=O)O)OCCCCCCCCCCCC	MTT	834 µM
O=C(/C=C/c1ccc(O)c(O)c1)O[C@@H]1C[C@](OC(=O)/C=C/c2ccc(O)c(O)c2)(C(=O)O)C[C@@H](O)[C@H]1O		>250 µM
C[C@H](Cn1cnc2c(N)ncnc21)OCP(=O)(OCOC(=O)C(C)(C)C)OCOC(=O)C(C)(C)C		40 µM
O=C(O)/C=C/c1ccc(O)c(O)c1		>250 µg/mL
COC(=O)N[C@H](C(=O)N[C@@H](Cc1ccccc1)[C@@H](O)CN(Cc1ccc(-c2ccccn2)cc1)NC(=O)[C@@H](NC(=O)OC)C(C)(C)C)C(C)(C)C		28.6 µM
Cc1cn([C@H]2C[C@H](N=[N+]=[N-])[C@@H](COC(=O)C(=O)NC(Cc3ccccc3)C(=O)O)O2)c(=O)[nH]c1=O	trypan blue	150 µM
Nc1ncnc2c1ncn2[C@@H]1O[C@H](OCP(=O)(O)O)C=C1F		>1000 µM
Nc1ccn([C@H]2CC[C@@H](CO)O2)c(=O)n1		10 µM
CC(=O)Nc1ccc(S(=O)(=O)N(CCC(C)C)C[C@@H](O)[C@@H]2Cc3ccc(cc3)OCCCC[C@H](NC(=O)OC(C)(C)C)C(=O)N[C@@H](C(C)C)C(=O)N2)cc1	trypan blue	7.08 µM
O=C1N(c2ccccc2)c2ccccc2C1(Cc1nccn1Cc1ccccc1)Cc1nccn1Cc1ccccc1		13 µM
CCCC[C@@H]1NC(=O)[C@@H](NC(=O)[C@H](CO)NC(=O)OC(C)(C)C)CCCCOc2ccc(cc2)C[C@@H]([C@H](O)CN(CCC(C)C)S(=O)(=O)c2ccc(NC(C)=O)cc2)NC1=O	trypan blue	9.435 µM
COc1cc([C@@H]2c3cc4c(cc3[C@H](O)[C@H]3COC(=O)[C@H]23)OCO4)cc(OC)c1OC		0.0022 µg/mL

Repeating the final 9 entries:

{"structure": "O=C(O)/C=C/c1ccc(O)c(O)c1", "value": ">250 µg/mL"}
{"structure": "COC(=O)N[C@H](C(=O)N[C@@H](Cc1ccccc1)[C@@H](O)CN(Cc1ccc(-c2ccccn2)cc1)NC(=O)[C@@H](NC(=O)OC)C(C)(C)C)C(C)(C)C", "value": "28.6 µM"}
{"structure": "Cc1cn([C@H]2C[C@H](N=[N+]=[N-])[C@@H](COC(=O)C(=O)NC(Cc3ccccc3)C(=O)O)O2)c(=O)[nH]c1=O", "read by": "trypan blue", "value": "150 µM"}
{"structure": "Nc1ncnc2c1ncn2[C@@H]1O[C@H](OCP(=O)(O)O)C=C1F", "value": ">1000 µM"}
{"structure": "Nc1ccn([C@H]2CC[C@@H](CO)O2)c(=O)n1", "value": "10 µM"}
{"structure": "CC(=O)Nc1ccc(S(=O)(=O)N(CCC(C)C)C[C@@H](O)[C@@H]2Cc3ccc(cc3)OCCCC[C@H](NC(=O)OC(C)(C)C)C(=O)N[C@@H](C(C)C)C(=O)N2)cc1", "read by": "trypan blue", "value": "7.08 µM"}
{"structure": "O=C1N(c2ccccc2)c2ccccc2C1(Cc1nccn1Cc1ccccc1)Cc1nccn1Cc1ccccc1", "value": "13 µM"}
{"structure": "CCCC[C@@H]1NC(=O)[C@@H](NC(=O)[C@H](CO)NC(=O)OC(C)(C)C)CCCCOc2ccc(cc2)C[C@@H]([C@H](O)CN(CCC(C)C)S(=O)(=O)c2ccc(NC(C)=O)cc2)NC1=O", "read by": "trypan blue", "value": "9.435 µM"}
{"structure": "COc1cc([C@@H]2c3cc4c(cc3[C@H](O)[C@H]3COC(=O)[C@H]23)OCO4)cc(OC)c1OC", "value": "0.0022 µg/mL"}

CCn: concentration that lowers growth or viability of the cells by n%. An empty or dashed field is not shown.